Values joined by “and” are separate entries in the source; they are usually repeats but may differ in a detail not shown here. Identical values can stand only once. The list shows a part of the results, in another mix than the full data. Some salts or complexes appear as unconnected parts, following the source record. Active and inactive are the calls of the source.

Among the data in PubChem BioAssay AID1053175 (ICCB-Longwood Screening Facility, Harvard Medical School, 2014) are OD600 absorbance values, retold here.

The assay in a line: E. coli growth inhibition, primary screen, OD600 (AID 1053175). Conditions: Escherichia coli growth, OD600, 23 h; stronger effect = lower value.
Regarding `Cc1ccc(OP(=O)(Nc2ccc([N+](=O)[O-])cn2)Oc2ccc(C)cc2)cc1`, the OD600 absorbance was inactive: 0.649.

In the case of `Cc1cccc(C)c1OP(C)(N)=O` (stereo not drawn), the OD600 absorbance is inactive: 0.679.

`COc1ccccc1OP(C)(=O)Nc1ccc(C)cc1` (stereo not drawn): the OD600 absorbance is inactive: 0.666.

In the case of `CC(C)c1ccc(OP(=O)(Nc2ccccn2)Oc2ccccc2F)cc1` (stereo not drawn), the OD600 absorbance is inactive: 0.625.

Take `Cc1ccc(NP(C)(=O)Oc2ccccc2)c(C)c1` (stereo not drawn): the OD600 absorbance was inactive: 0.715.

For `CCOC(=O)c1ccc(NP(C)(=O)Oc2ccccc2)cc1` (stereo not drawn), the OD600 absorbance was inactive: 0.667.

As to `COc1ccc2c(c1O)-c1c(O)c(OC)cc3c1C(C2)[N+](C)(C)CC3.O=[N+]([O-])c1cc([N+](=O)[O-])c([O-])c([N+](=O)[O-])c1[O-]` (stereo not drawn), the OD600 absorbance was inactive: 0.684.

As for `ClCCSc1nnc(-c2cccnc2)o1`, the OD600 absorbance was inactive: 0.691.

Turning to `Cc1cc(C)cc(OP(C)(N)=O)c1` (stereo not drawn), the OD600 absorbance was inactive: 0.674.

For `O=C(OC1CN2CCC1CC2)c1cccc2[nH]cnc12` (stereo not drawn), the OD600 absorbance is inactive: 0.642.

Consider `CCN(CC)C(=S)SC(NC=O)C(Cl)(Cl)Cl` (stereo not drawn), for which the OD600 absorbance was inactive: 0.737.

As to `COc1ccccc1OP(C)(=O)Nc1cc(Cl)ccc1C` (stereo not drawn), the OD600 absorbance was inactive: 0.661.

As to `CC(C)NC(=O)NP(=O)(Oc1ccccc1)Oc1ccccc1`, the OD600 absorbance is inactive: 0.672.

`COc1ccc(OP(C)(=O)Nc2cccc(F)c2)cc1` (stereo not drawn): the OD600 absorbance is inactive: 0.691.

As to `O=C(OC1CN2CCC1CC2)C12CC3CC(CC(C3)C1)C2` (stereo not drawn), the OD600 absorbance was inactive: 0.72.

In the case of `CCN(CC)CCCOC(=O)C(O)(c1ccccc1)c1ccccc1`, the OD600 absorbance is inactive: 0.654.

Turning to `Cc1cc(=O)[nH]c(N[N+](=O)[O-])n1`, the OD600 absorbance is inactive: 0.655.

Turning to `Cc1c2c(nc3ccccc13)SC(C(Cl)Cl)C2` (stereo not drawn), the OD600 absorbance was inactive: 0.682.

Regarding `COc1ccc2nc(NP(=O)(c3ccccc3)c3ccccc3)sc2c1`, the OD600 absorbance was inactive: 0.68.

For `COc1cc(I)ccc1[As](=O)(O)O`, the OD600 absorbance was inactive: 0.654.

As to `O=P1(N(CCCl)CCCl)Nc2ccccc2N1`, the OD600 absorbance was inactive: 0.655.

Consider `CCC(CO)(C(=O)OC1CN2CCC1CC2)c1ccccc1` (stereo not drawn), for which the OD600 absorbance was inactive: 0.688.

Consider `NC(=O)c1cc([N+](=O)[O-])cc([N+](=O)[O-])c1N`, for which the OD600 absorbance is inactive: 0.717.

Consider `COc1ccccc1OP(C)(=O)Nc1ccc(Br)cc1` (stereo not drawn), for which the OD600 absorbance was inactive: 0.668.

`COc1ccc(OP(C)(=O)Nc2ccccn2)cc1` (stereo not drawn): the OD600 absorbance was inactive: 0.67.

For the compound `COc1ccccc1OP(=O)(Nc1ccc(C)cn1)Oc1ccccc1OC`, the OD600 absorbance is inactive: 0.696.

On to `Cc1ccc(OP(=O)(Nc2nccs2)Oc2ccc(C)cc2)cc1`, for which the OD600 absorbance was inactive: 0.698.

Take `Clc1ccc(Cl)c(NC2=NCC(CBr)S2)c1` (stereo not drawn): the OD600 absorbance was inactive: 0.695.

In the case of `CN(C)CCOC(=O)C(O)(c1ccccc1)C1CCCC1` (stereo not drawn), the OD600 absorbance was inactive: 0.727.

For `CN1CCCC(OC(=O)C(c2ccccc2)c2ccccc2)C1` (stereo not drawn), the OD600 absorbance is inactive: 0.698.

Consider `CC(C)CC(=O)NC(Sc1ccc(Cl)cc1)C(Cl)(Cl)Cl` (stereo not drawn), for which the OD600 absorbance was inactive: 0.677.

In the case of `O=[N+]([O-])c1cc([N+](=O)[O-])c(Nc2ccccn2)c([N+](=O)[O-])c1`, the OD600 absorbance was inactive: 0.655.

For the compound `Cc1c(NP(C)(=O)Oc2ccc(C(C)C)cc2)c(=O)n(-c2ccccc2)n1C` (stereo not drawn), the OD600 absorbance is inactive: 0.696.

With `Nc1cc(N)c2nonc2c1[N+](=O)[O-]`, the OD600 absorbance was inactive: 0.693.

As to `Oc1ccccc1CNc1ccccn1`, the OD600 absorbance is inactive: 0.662.

Consider `O=C(NC(Sc1ccncn1)C(Cl)(Cl)Cl)c1ccccc1` (stereo not drawn), for which the OD600 absorbance is inactive: 0.636.

For `CP(=O)(Nc1ccccn1)Oc1ccccc1` (stereo not drawn), the OD600 absorbance was inactive: 0.676.

Consider `COc1ccccc1OP(C)(=O)Nc1ccc(C)cc1C` (stereo not drawn), for which the OD600 absorbance was inactive: 0.694.

Regarding `CCc1ccc(OP(C)(=O)O)cc1`, the OD600 absorbance is inactive: 0.678.

On to `CC(=O)Nc1ccc([As](=O)(O)O)cc1`, for which the OD600 absorbance is inactive: 0.672.

For `CCCC1OP(N)(=O)OCC1CC` (stereo not drawn), the OD600 absorbance is inactive: 0.723.

As for `CCN(CC)CC(C)C(C)OC(=O)C(O)(c1ccccc1)c1ccccc1` (stereo not drawn), the OD600 absorbance is inactive: 0.648.

Regarding `O=C1C(O)=C([N+](=O)[O-])C(=O)C(O)=C1[N+](=O)[O-]`, the OD600 absorbance is inactive: 0.67.

On to `Cc1cc(C)cc(OP(C)(=O)Nc2cccc(C(F)(F)F)c2)c1` (stereo not drawn), for which the OD600 absorbance was inactive: 0.651.

Consider `O=P(Nc1nc2ccc(Cl)cc2s1)(c1ccccc1)c1ccccc1`, for which the OD600 absorbance was inactive: 0.646.

For the compound `CCOP(=O)(Nc1ccccc1)OCC`, the OD600 absorbance is inactive: 0.713.

For `Cc1cc(SC(NC(=O)c2ccc(F)cc2)C(Cl)(Cl)Cl)ncn1` (stereo not drawn), the OD600 absorbance was inactive: 0.72.

Take `Cc1ccc(NP(=O)(Oc2ccccc2F)Oc2ccccc2F)nc1`: the OD600 absorbance is inactive: 0.628.

Take `COc1ccccc1OP(C)(=O)Nc1ccc(C)c(C)c1` (stereo not drawn): the OD600 absorbance is inactive: 0.731.

As to `CC(C)=NN=C(N)N[N+](=O)[O-]`, the OD600 absorbance was inactive: 0.69.

As for `CC(C)N1C(=O)CC2(CCN(CCOC(=O)C(O)(c3ccccc3)c3ccccc3)CC2)C1=O`, the OD600 absorbance was inactive: 0.761.

Regarding `CCN(N=Nc1nonc1N)c1nonc1N`, the OD600 absorbance was inactive: 0.705.

On to `CP(=O)(Nc1ccc(Cl)cc1Cl)Oc1ccccc1` (stereo not drawn), for which the OD600 absorbance was inactive: 0.695.

Regarding `Nc1ccc2c(ccc3cccnc32)n1.O=[N+]([O-])c1cc([N+](=O)[O-])c(O)c([N+](=O)[O-])c1`, the OD600 absorbance was inactive: 0.599.

With `O=P1(N(CCCl)CCCl)OCCCS1` (stereo not drawn), the OD600 absorbance is inactive: 0.672.

For `O=C(Nc1cc([As](=O)(O)O)ccc1O)c1ccccc1`, the OD600 absorbance was inactive: 0.682.

Regarding `CP(=O)(OC12CC3CC(CC(C3)C1)C2)OC12CC3CC(CC(C3)C1)C2`, the OD600 absorbance is inactive: 0.679.

For `CC(C)(C)C(=O)NC(Sc1ccncn1)C(Cl)(Cl)Cl` (stereo not drawn), the OD600 absorbance was inactive: 0.65.

For the compound `O=[N+]([O-])c1ncn(CCn2ncnc2[N+](=O)[O-])n1`, the OD600 absorbance was inactive: 0.657.

As for `O=[N+]([O-])c1cccc(NC2=NCC(CBr)S2)c1` (stereo not drawn), the OD600 absorbance is inactive: 0.675.

On to `O=C(O)CNc1ccc([As](=O)(O)O)cc1`, for which the OD600 absorbance was inactive: 0.662.

Regarding `CCN(CC)CC(O)COC(=O)C(O)(c1ccccc1)C1CCCCC1` (stereo not drawn), the OD600 absorbance was inactive: 0.682.

Take `COc1ccc(C2=NCC(CBr)S2)cc1` (stereo not drawn): the OD600 absorbance is inactive: 0.716.

For `COc1ccc(OP(C)(=O)Nc2ccc(Br)cc2)cc1` (stereo not drawn), the OD600 absorbance was inactive: 0.684.

With `COc1ccccc1OP(C)(=O)Nc1c(C)n(C)n(-c2ccccc2)c1=O` (stereo not drawn), the OD600 absorbance is inactive: 0.737.

As for `O=[N+]([O-])c1cccc2n[nH]nc12`, the OD600 absorbance was inactive: 0.605.

Consider `CC(=O)N1C2C3N(C(C)=O)C1C1N(C(C)=O)C(C(N1C(C)=O)N3C(C)=O)N2C(C)=O`, for which the OD600 absorbance is inactive: 0.723.

Turning to `O=C(OCCCN1CCCC1)C(O)(c1ccccc1)C1CCCCC1` (stereo not drawn), the OD600 absorbance is inactive: 0.639.

Consider `Cc1ccc(NP(=O)(Oc2ccccc2)Oc2ccccc2)nc1`, for which the OD600 absorbance was inactive: 0.712.

Consider `CP(=O)(Oc1ccccc1)N1CCOC1=O` (stereo not drawn), for which the OD600 absorbance was inactive: 0.81.

Consider `CCc1nc2c(n1)c1c(non1O)c1c2no[n+]1[O-]`, for which the OD600 absorbance was inactive: 0.66.

On to `O=[N+]([O-])c1cc([N+](=O)[O-])c(CCNc2ccccc2)c([N+](=O)[O-])c1`, for which the OD600 absorbance is inactive: 0.631.

In the case of `CCc1ccc(OP(C)(=O)Nc2cccnc2)cc1` (stereo not drawn), the OD600 absorbance was inactive: 0.7.

As for `CC(C)(C)c1ccc(OP(C)(=O)O)cc1`, the OD600 absorbance was inactive: 0.713.

For the compound `Nc1ccc([As](=O)(O)c2ccc(N)cc2)cc1`, the OD600 absorbance is inactive: 0.703.

On to `COc1ccccc1OP(C)(=O)Nc1ccccc1Br` (stereo not drawn), for which the OD600 absorbance is inactive: 0.683.

For `C[N+]1=C2C=CC=CC=C2SC12C([N+](=O)[O-])=CC([N+](=O)[O-])=C[C-]2[N+](=O)[O-]` (stereo not drawn), the OD600 absorbance is inactive: 0.618.

Turning to `CP(=O)(Nc1ccc(Cl)cc1)Oc1ccc(F)cc1` (stereo not drawn), the OD600 absorbance was inactive: 0.691.

Take `CN(C)C(=O)c1c([N+](=O)[O-])cc([N+](=O)[O-])cc1[N+](=O)[O-]`: the OD600 absorbance is inactive: 0.556.

Regarding `CN(C(=O)Cc1ccc(Cl)c(Cl)c1)C1CCCCC1N1CCCC1` (stereo not drawn), the OD600 absorbance was inactive: 0.635 and inactive: 0.632 and inactive: 0.673.

With `CC1CCN(C(=O)Oc2c(Cl)cc(Cl)c3cccnc23)CC1`, the OD600 absorbance is inactive: 0.657.

On to `CP(=O)(Nc1ccc(SC(F)(F)F)cc1)Oc1ccc(F)cc1` (stereo not drawn), for which the OD600 absorbance is inactive: 0.664.

Regarding `CC(C)C(=O)NC(Sc1ccccc1)C(Cl)(Cl)Cl` (stereo not drawn), the OD600 absorbance is inactive: 0.706.

As for `O=P(Nc1nccs1)(c1ccccc1)c1ccccc1`, the OD600 absorbance is inactive: 0.684.

As to `CCNC(=S)N=C(N)N[N+](=O)[O-]`, the OD600 absorbance is inactive: 0.622.

For `CCOP(C)(=S)SCC(=O)NC(C)(CC)C(=O)O` (stereo not drawn), the OD600 absorbance is inactive: 0.659.

Turning to `c1nnnn1CCn1cnnn1`, the OD600 absorbance is inactive: 0.736.

With `CP(=O)(Nc1ccc2c(c1)OCCO2)Oc1ccccc1` (stereo not drawn), the OD600 absorbance is inactive: 0.731.

Turning to `Cc1ccccc1NP(C)(=O)Nc1ccccc1C`, the OD600 absorbance was inactive: 0.738.

Take `COc1ccc(OP(C)(=O)Nc2cccc(Br)c2)cc1` (stereo not drawn): the OD600 absorbance is inactive: 0.701.

`CC(C)C=NN=C(N)N[N+](=O)[O-]`: the OD600 absorbance is inactive: 0.703.

As for `COc1ccc(N)c([N+](=O)[O-])c1[N+](=O)[O-]`, the OD600 absorbance is inactive: 0.611.

Regarding `C=CCN1CCN(CCOC(=O)C(O)(c2ccccc2)c2ccccc2)CC1`, the OD600 absorbance was inactive: 0.688.

For the compound `O=P(Nc1ccccn1)(c1ccc(Br)cc1)c1ccc(Br)cc1`, the OD600 absorbance was inactive: 0.691.

On to `CN(C)C1(CNC(=O)c2ccc(Cl)c(S(N)(=O)=O)c2)CCCCC1`, for which the OD600 absorbance is inactive: 0.671.

Take `O=P(Nc1nc2ccccc2s1)(c1ccccc1)c1ccccc1`: the OD600 absorbance was inactive: 0.711.

For the compound `CCN(C(=NP(=O)(N1CCOCC1)N1CCOCC1)N1CCOCC1)c1ccc(OC)cc1`, the OD600 absorbance was inactive: 0.689.

Regarding `COc1ccc(NP(C)(=O)Oc2ccccc2OC)cc1` (stereo not drawn), the OD600 absorbance is inactive: 0.705.

For `O=[N+]([O-])c1ncn(CCn2cnc([N+](=O)[O-])n2)n1`, the OD600 absorbance is inactive: 0.707.

Consider `O=[N+]([O-])c1ccc(OP2(=O)COCCO2)cc1` (stereo not drawn), for which the OD600 absorbance was inactive: 0.676.

`CC(=O)NC(SC(=S)N(C)C)C(Cl)(Cl)Cl` (stereo not drawn): the OD600 absorbance was inactive: 0.594.

In the case of `O=[As](O)(c1ccccc1)c1ccc(O)cc1`, the OD600 absorbance was inactive: 0.674.

For `O=[N+]([O-])c1cc([N+](=O)[O-])c(NCC2CCS(=O)(=O)C2)c([N+](=O)[O-])c1` (stereo not drawn), the OD600 absorbance was inactive: 0.653.
